These results are taken from paper PMC10729856, “The bacterial effector SidN/Lpg1083 promotes cell death by targeting Lamin-B2” (2023).

For orientation: stoichiometry N means the number of molecules, sites or subunits per partner or assembly.

This assay addresses SidN T55A/Y57A/R80A, recombinant (Legionella pneumophila). Briefly: SEC. For orientation: Size exclusion chromatography separates by hydrodynamic size, large species first.

“SidN T55A/Y57A/R80A, recombinant (natural protein)”: the stoichiometry N was 2.
